PubChem BioAssay AID1259414, Drosophila RNAi Screening Center – 2018
Test: 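Host factors increasing or decreasing Wolbachia levels in cultured fly cells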 (primary screen). Cells: Drosophila JW18 cells infected with Wolbachia. Knock-down reagent: long dsRNA against Drosophila genes, 0.25 µg dsRNA per well of a 384-well plate. Duration: 5 days. Challenge: cells persistently infected with Wolbachia before knock-down; no added drug. Measured: 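Imaged fluorescence in situ signal for Wolbachia 23S rRNA per DAPI-counted host cell, given as a robust z-score within each plate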. Reading the numbers: Wolbachia per cell robust z: higher = more Wolbachia per host cell than the plate typical. Rule for the call: 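Hit when robust z is 1.5 or more, or -1.5 or less, in at least two of three replicates; excludes dsRNAs with several or no targets, genes not expressed in JW18 and well A1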.
In all, the deposit lists about 24,000 reagents; this is an unselected part of those with a known target gene and a result. Over the whole deposit, about 1,210 (5%) got an active call. 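Inactive calls also include excluded dsRNAs with several or no targets, genes unexpressed in JW18, and well A1, regardless of score.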 A plus sign joins genes that one reagent is predicted to hit. No sequences are given here.

Silencing of CG14535 [DRSC02393] resulted in: Wolbachia per cell robust z, rep 1 = -3.91; Wolbachia per cell robust z, rep 2 = -0.951; Wolbachia per cell robust z, rep 3 = -0.246; inactive.
CG31883 [DRSC02561] gave Wolbachia per cell robust z, rep 1 = 0.614; Wolbachia per cell robust z, rep 2 = 0.407; Wolbachia per cell robust z, rep 3 = 0.901; inactive.
Depletion of asRNA:CR43477 + CG12256 [DRSC14484] gave: Wolbachia per cell robust z, rep 1 = -0.304; Wolbachia per cell robust z, rep 2 = -0.261; Wolbachia per cell robust z, rep 3 = -0.449; inactive.
asRNA:CR43477 + CG12256 [DRSC29176] scored Wolbachia per cell robust z, rep 1 = 0.572; Wolbachia per cell robust z, rep 2 = -0.196; Wolbachia per cell robust z, rep 3 = 1.15; inactive.
Silencing of CCDC53 (Coiled-coil domain containing 53) [DRSC03056] resulted in: Wolbachia per cell robust z, rep 1 = -4.32; Wolbachia per cell robust z, rep 2 = 0.185; Wolbachia per cell robust z, rep 3 = 0.146; inactive.
For ZnT41F (Zinc transporter 41F) [DRSC04850] the deposit lists Wolbachia per cell robust z, rep 1 = 0.0646; Wolbachia per cell robust z, rep 2 = 1.02; Wolbachia per cell robust z, rep 3 = 0.843; inactive.

Laid out differently: entries from further up
{"gene":"CCDC53 (Coiled-coil domain containing 53)","DRSC id":"DRSC03056","Wolbachia per cell robust z, rep 1":-4.32,"Wolbachia per cell robust z, rep 2":0.185,"Wolbachia per cell robust z, rep 3":0.146,"activity call":"inactive"}
{"gene":"ZnT41F (Zinc transporter 41F)","DRSC id":"DRSC04850","Wolbachia per cell robust z, rep 1":0.0646,"Wolbachia per cell robust z, rep 2":1.02,"Wolbachia per cell robust z, rep 3":0.843,"activity call":"inactive"}

Further reagents follow:
For CG15484 [DRSC02494], the entry reads Wolbachia per cell robust z, rep 1 = -0.103; Wolbachia per cell robust z, rep 2 = 0.525; Wolbachia per cell robust z, rep 3 = 0.0222; inactive.
After knock-down of CG15484 [DRSC22836], the record shows Wolbachia per cell robust z, rep 1 = -0.317; Wolbachia per cell robust z, rep 2 = -0.379; Wolbachia per cell robust z, rep 3 = -2.54; inactive.
Hr39 (Hormone receptor-like in 39) [DRSC03346] gave Wolbachia per cell robust z, rep 1 = 1.07; Wolbachia per cell robust z, rep 2 = 0.92; Wolbachia per cell robust z, rep 3 = -2.35; inactive.
Hr39 (Hormone receptor-like in 39) [DRSC26006] scored Wolbachia per cell robust z, rep 1 = 0.615; Wolbachia per cell robust z, rep 2 = 0.342; Wolbachia per cell robust z, rep 3 = -0.235; inactive.
After knock-down of CG3803 [DRSC04420] the results were Wolbachia per cell robust z, rep 1 = 0.256; Wolbachia per cell robust z, rep 2 = -2.88; Wolbachia per cell robust z, rep 3 = 0.0826; inactive.
Against Hs3st-A (Heparan sulfate 3-O sulfotransferase-A) [DRSC06508], the values are Wolbachia per cell robust z, rep 1 = -0.22; Wolbachia per cell robust z, rep 2 = 0.351; Wolbachia per cell robust z, rep 3 = -0.479; inactive.
For Hs3st-A (Heparan sulfate 3-O sulfotransferase-A) [DRSC06509], the entry reads Wolbachia per cell robust z, rep 1 = -2.65; Wolbachia per cell robust z, rep 2 = -0.271; Wolbachia per cell robust z, rep 3 = 0.0961; inactive.
Silencing of Hs3st-A (Heparan sulfate 3-O sulfotransferase-A) [DRSC30014] resulted in: Wolbachia per cell robust z, rep 1 = 0.285; Wolbachia per cell robust z, rep 2 = 0.086; Wolbachia per cell robust z, rep 3 = 0.942; inactive.
For DCP1 (Decapping protein 1) [DRSC04091], the entry reads Wolbachia per cell robust z, rep 1 = -0.277; Wolbachia per cell robust z, rep 2 = 0.137; Wolbachia per cell robust z, rep 3 = -5.04; inactive.
For DCP1 (Decapping protein 1) [DRSC29844], the entry reads Wolbachia per cell robust z, rep 1 = -6.73; Wolbachia per cell robust z, rep 2 = -7.06; Wolbachia per cell robust z, rep 3 = -2.55; active.
